ChEMBL document CHEMBL5346973 (J Med Chem, 2023)

The chains behind the UniProt entries cited, without tags or fusion partners. Residues count along the entry.
UniProt P04756, 21-457 limits assumed: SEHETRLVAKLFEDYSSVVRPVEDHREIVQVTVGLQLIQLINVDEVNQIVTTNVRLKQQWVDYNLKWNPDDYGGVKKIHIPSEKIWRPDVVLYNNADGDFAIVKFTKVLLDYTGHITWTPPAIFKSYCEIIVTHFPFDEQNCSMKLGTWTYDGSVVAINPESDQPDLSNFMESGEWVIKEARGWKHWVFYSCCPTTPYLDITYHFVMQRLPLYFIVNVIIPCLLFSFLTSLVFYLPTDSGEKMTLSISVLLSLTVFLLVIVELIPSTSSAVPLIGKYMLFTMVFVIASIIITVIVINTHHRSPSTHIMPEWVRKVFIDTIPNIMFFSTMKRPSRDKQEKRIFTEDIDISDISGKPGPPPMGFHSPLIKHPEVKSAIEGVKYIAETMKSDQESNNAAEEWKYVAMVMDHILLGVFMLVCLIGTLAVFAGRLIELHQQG
UniProt P09690, 24-501 limits assumed: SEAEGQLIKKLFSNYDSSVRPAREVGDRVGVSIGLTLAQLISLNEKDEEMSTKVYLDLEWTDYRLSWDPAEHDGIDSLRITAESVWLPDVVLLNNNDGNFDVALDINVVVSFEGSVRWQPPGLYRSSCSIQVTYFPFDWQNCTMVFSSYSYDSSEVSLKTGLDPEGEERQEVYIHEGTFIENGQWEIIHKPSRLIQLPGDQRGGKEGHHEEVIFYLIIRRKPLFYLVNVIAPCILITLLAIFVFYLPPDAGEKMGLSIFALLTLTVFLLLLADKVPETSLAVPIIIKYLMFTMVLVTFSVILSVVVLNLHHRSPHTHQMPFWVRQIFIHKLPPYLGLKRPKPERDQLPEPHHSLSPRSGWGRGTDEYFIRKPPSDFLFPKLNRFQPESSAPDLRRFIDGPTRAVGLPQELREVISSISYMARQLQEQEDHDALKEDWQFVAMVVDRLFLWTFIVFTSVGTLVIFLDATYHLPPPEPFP
UniProt P02716, 25-520 limits assumed: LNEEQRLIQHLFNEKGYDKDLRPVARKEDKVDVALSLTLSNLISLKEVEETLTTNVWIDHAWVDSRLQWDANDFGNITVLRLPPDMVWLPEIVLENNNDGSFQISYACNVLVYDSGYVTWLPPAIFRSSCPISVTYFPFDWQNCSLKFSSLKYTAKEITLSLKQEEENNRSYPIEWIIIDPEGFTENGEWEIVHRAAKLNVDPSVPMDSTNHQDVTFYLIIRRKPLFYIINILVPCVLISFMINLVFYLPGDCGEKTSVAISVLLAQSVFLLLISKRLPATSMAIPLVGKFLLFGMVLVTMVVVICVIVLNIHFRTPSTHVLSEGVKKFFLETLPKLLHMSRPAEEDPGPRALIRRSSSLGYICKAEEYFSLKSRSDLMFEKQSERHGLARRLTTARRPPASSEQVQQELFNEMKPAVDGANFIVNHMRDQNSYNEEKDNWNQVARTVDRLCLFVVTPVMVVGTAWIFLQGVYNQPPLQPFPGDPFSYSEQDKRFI
UniProt P20782, 21-493 limits assumed: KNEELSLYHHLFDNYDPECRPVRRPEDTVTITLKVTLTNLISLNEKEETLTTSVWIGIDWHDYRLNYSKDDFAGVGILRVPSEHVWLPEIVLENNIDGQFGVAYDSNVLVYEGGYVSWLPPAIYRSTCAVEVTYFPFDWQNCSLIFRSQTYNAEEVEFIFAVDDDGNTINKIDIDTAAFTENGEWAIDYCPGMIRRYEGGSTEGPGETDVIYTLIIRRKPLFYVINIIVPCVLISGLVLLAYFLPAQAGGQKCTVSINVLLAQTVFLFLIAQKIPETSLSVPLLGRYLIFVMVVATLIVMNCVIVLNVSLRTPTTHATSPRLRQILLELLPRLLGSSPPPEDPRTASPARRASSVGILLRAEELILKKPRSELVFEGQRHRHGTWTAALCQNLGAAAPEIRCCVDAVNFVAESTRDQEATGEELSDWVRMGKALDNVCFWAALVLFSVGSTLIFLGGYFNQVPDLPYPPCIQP

Biological target: Nicotinic acetylcholine receptor alpha1/beta1/epsilon/delta (Mus musculus, UniProt P04756+P09690+P02716+P20782)
Experiment: Antagonist activity at mouse alpha1beta1deltaepsilon nACh receptor expressed in Xenopus oocyte assessed as inhibition of acetylcholine-induced response at -70 mV holding potential by voltage-clamp based electrophysiological assay

CC[C@H](C)[C@@H]1NC(=O)[C@H](CCCNC(=N)N)NC(=O)[C@H](CCCNC(=N)N)NC(=O)[C@@H](NC(=O)[C@H](Cc2ccc(O)cc2)NC(=O)[C@H](CCCNC(=N)N)NC(=O)[C@H](CCCNC(=N)N)NC(=O)[C@H](CCCNC(=N)N)NC(=O)[C@H](CCCNC(=N)N)NC(=O)[C@H](CC(=O)O)NC(=O)[C@H](Cc2ccc(O)cc2)NC(=O)[C@@H]2CCCN2C(=O)[C@@H](CO)NC(=O)[C@H](C)NC(=O)[C@@H]2CSSC[C@H](NC(=O)[C@@H](N)[C@@H](C)O)C(=O)N[C@@H](CCCNC(=N)N)C(=O)N[C@@H](CO)C(=O)N[C@@H](CO)C(=O)NCC(=O)N[C@@H](CCCNC(=N)N)C(=O)N[C@@H](Cc3ccc(O)cc3)C(=O)N2)CSSC[C@@H](C(=O)N[C@H](C(=O)O)C(C)C)NC(=O)[C@H](C)NC(=O)[C@H](CC(=O)O)NC(=O)[C@H]([C@@H](C)O)NC1=O showed an IC50 of 1020 nM.

In the case of CC[C@H](C)[C@@H]1NC(=O)[C@H](CCCNC(=N)N)NC(=O)[C@H](CCCNC(=N)N)NC(=O)[C@@H](NC(=O)[C@H](Cc2ccc(O)cc2)NC(=O)[C@H](CCCNC(=N)N)NC(=O)[C@H](CCCNC(=N)N)NC(=O)[C@H](C)NC(=O)[C@H](CCCNC(=N)N)NC(=O)[C@H](CC(=O)O)NC(=O)[C@H](Cc2ccc(O)cc2)NC(=O)[C@@H]2CCCN2C(=O)[C@H](CO)NC(=O)[C@H](CCCNC(=N)N)NC(=O)[C@@H]2CSSC[C@H](NC(=O)[C@@H](N)[C@@H](C)O)C(=O)N[C@@H](CCCNC(=N)N)C(=O)N[C@@H](CO)C(=O)N[C@@H](CO)C(=O)NCC(=O)N[C@@H](CCCNC(=N)N)C(=O)N[C@@H](Cc3ccc(O)cc3)C(=O)N2)CSSC[C@@H](C(=O)N[C@H](C(=O)O)C(C)C)NC(=O)[C@H](C)NC(=O)[C@H](CC(=O)O)NC(=O)[C@H]([C@@H](C)O)NC1=O, the IC50 is reported as 3140 nM.

For CC[C@H](C)[C@@H]1NC(=O)[C@H](CCCNC(=N)N)NC(=O)[C@H](CCCNC(=N)N)NC(=O)[C@@H](NC(=O)[C@H](Cc2ccc(O)cc2)NC(=O)[C@H](CCCNC(=N)N)NC(=O)[C@H](CCCNC(=N)N)NC(=O)[C@H](CCCNC(=N)N)NC(=O)[C@H](CCCNC(=N)N)NC(=O)[C@H](CC(=O)O)NC(=O)[C@H](Cc2ccc(O)cc2)NC(=O)[C@@H]2CCCN2C(=O)[C@H](CO)NC(=O)[C@H](CCCNC(=N)N)NC(=O)[C@@H]2CSSC[C@H](NC(=O)[C@@H](N)[C@@H](C)O)C(=O)N[C@@H](CCCNC(=N)N)C(=O)N[C@@H](CO)C(=O)N[C@@H](CO)C(=O)NCC(=O)N[C@@H](CCCNC(=N)N)C(=O)N[C@@H](Cc3ccc(O)cc3)C(=O)N2)CSSC[C@@H](C(=O)N[C@@H](C)C(=O)O)NC(=O)[C@H](C)NC(=O)[C@H](CC(=O)O)NC(=O)[C@H]([C@@H](C)O)NC1=O, the IC50 was 1690 nM.

With CC[C@H](C)[C@@H]1NC(=O)[C@H](CCCNC(=N)N)NC(=O)[C@H](CCCNC(=N)N)NC(=O)[C@@H](NC(=O)[C@H](Cc2ccc(O)cc2)NC(=O)[C@H](CCCNC(=N)N)NC(=O)[C@H](CCCNC(=N)N)NC(=O)[C@H](CCCNC(=N)N)NC(=O)[C@H](CCCNC(=N)N)NC(=O)[C@H](CC(=O)O)NC(=O)[C@H](Cc2ccc(O)cc2)NC(=O)[C@@H]2CCCN2C(=O)[C@H](CO)NC(=O)[C@H](CCCNC(=N)N)NC(=O)[C@@H]2CSSC[C@H](NC(=O)[C@@H](N)[C@@H](C)O)C(=O)N[C@@H](CCCNC(=N)N)C(=O)N[C@@H](CO)C(=O)N[C@@H](CO)C(=O)N[C@@H](C)C(=O)N[C@@H](CCCNC(=N)N)C(=O)N[C@@H](Cc3ccc(O)cc3)C(=O)N2)CSSC[C@H](C(=O)N[C@H](C(=O)O)C(C)C)NC(=O)[C@H](C)NC(=O)[C@H](CC(=O)O)NC(=O)[C@H]([C@@H](C)O)NC1=O the IC50 was 1140 nM.

CC[C@H](C)[C@@H]1NC(=O)[C@H](CCCNC(=N)N)NC(=O)[C@H](CCCNC(=N)N)NC(=O)[C@@H]2CSSC[C@H](NC(=O)[C@H](Cc3ccc(O)cc3)NC(=O)[C@H](CCCNC(=N)N)NC(=O)CNC(=O)[C@H](CO)NC(=O)[C@H](CO)NC(=O)[C@H](CCCNC(=N)N)NC(=O)[C@@H](NC(=O)[C@@H](N)[C@@H](C)O)CSSC[C@@H](C(=O)N[C@H](C(=O)O)C(C)C)NC(=O)[C@H](C)NC(=O)[C@H](CC(=O)O)NC(=O)[C@H]([C@@H](C)O)NC1=O)C(=O)N[C@@H](CCCNC(=N)N)C(=O)N[C@@H](C)C(=O)N1CCC[C@H]1C(=O)N[C@@H](Cc1ccc(O)cc1)C(=O)N[C@@H](CC(=O)O)C(=O)N[C@@H](CCCNC(=N)N)C(=O)N[C@@H](CCCNC(=N)N)C(=O)N[C@@H](CCCNC(=N)N)C(=O)N[C@@H](CCCNC(=N)N)C(=O)N[C@@H](Cc1ccc(O)cc1)C(=O)N2 showed an IC50 of 1290 nM.

With CC[C@H](C)[C@@H]1NC(=O)[C@H](CCCNC(=N)N)NC(=O)[C@H](CCCNC(=N)N)NC(=O)[C@@H]2CSSC[C@H](NC(=O)[C@H](Cc3ccc(O)cc3)NC(=O)[C@H](CCCNC(=N)N)NC(=O)CNC(=O)[C@H](CO)NC(=O)[C@H](CO)NC(=O)[C@H](CCCNC(=N)N)NC(=O)[C@@H](NC(=O)[C@@H](N)[C@@H](C)O)CSSC[C@@H](C(=O)N[C@H](C(=O)O)C(C)C)NC(=O)[C@H](C)NC(=O)[C@H](CC(=O)O)NC(=O)[C@H]([C@@H](C)O)NC1=O)C(=O)N[C@@H](CCCNC(=N)N)C(=O)N[C@@H](CO)C(=O)N1CCC[C@H]1C(=O)N[C@@H](Cc1ccc(O)cc1)C(=O)N[C@@H](CC(=O)O)C(=O)N[C@@H](CCCNC(=N)N)C(=O)N[C@@H](CCCNC(=N)N)C(=O)N[C@@H](C)C(=O)N[C@@H](CCCNC(=N)N)C(=O)N[C@@H](Cc1ccc(O)cc1)C(=O)N2 the IC50 was 920 nM.

CC[C@H](C)[C@@H]1NC(=O)[C@H](CCCNC(=N)N)NC(=O)[C@H](CCCNC(=N)N)NC(=O)[C@@H](NC(=O)[C@H](Cc2ccc(O)cc2)NC(=O)[C@H](CCCNC(=N)N)NC(=O)[C@H](CCCNC(=N)N)NC(=O)[C@H](CCCNC(=N)N)NC(=O)[C@H](CCCNC(=N)N)NC(=O)[C@H](CC(=O)O)NC(=O)[C@H](Cc2ccc(O)cc2)NC(=O)[C@@H]2CCCN2C(=O)[C@H](CO)NC(=O)[C@H](CCCNC(=N)N)NC(=O)[C@@H]2CSSC[C@H](NC(=O)[C@@H](N)[C@@H](C)O)C(=O)N[C@@H](CCCNC(=N)N)C(=O)N[C@@H](CO)C(=O)N[C@@H](C)C(=O)NCC(=O)N[C@@H](CCCNC(=N)N)C(=O)N[C@@H](Cc3ccc(O)cc3)C(=O)N2)CSSC[C@@H](C(=O)N[C@H](C(=O)O)C(C)C)NC(=O)[C@H](C)NC(=O)[C@H](CC(=O)O)NC(=O)[C@H]([C@@H](C)O)NC1=O gave an IC50 of 960 nM.

Compound CC[C@H](C)[C@@H]1NC(=O)[C@H](CCCNC(=N)N)NC(=O)[C@H](CCCNC(=N)N)NC(=O)[C@@H]2CSSC[C@H](NC(=O)[C@H](Cc3ccc(O)cc3)NC(=O)[C@H](CCCNC(=N)N)NC(=O)CNC(=O)[C@H](CO)NC(=O)[C@H](CO)NC(=O)[C@H](CCCNC(=N)N)NC(=O)[C@@H](NC(=O)[C@@H](N)[C@@H](C)O)CSSC[C@@H](C(=O)N[C@H](C(=O)O)C(C)C)NC(=O)[C@H](C)NC(=O)[C@H](CC(=O)O)NC(=O)[C@H]([C@@H](C)O)NC1=O)C(=O)N[C@@H](CCCNC(=N)N)C(=O)N[C@@H](CO)C(=O)N1CCC[C@H]1C(=O)N[C@@H](Cc1ccc(O)cc1)C(=O)N[C@@H](CC(=O)O)C(=O)N[C@@H](CCCNC(=N)N)C(=O)N[C@@H](CCCNC(=N)N)C(=O)N[C@@H](CCCNC(=N)N)C(=O)N[C@@H](CCCNC(=N)N)C(=O)N[C@@H](C)C(=O)N2 has an IC50 of 1240 nM.

Compound CC[C@H](C)[C@@H]1NC(=O)[C@H](CCCNC(=N)N)NC(=O)[C@H](CCCNC(=N)N)NC(=O)[C@@H](NC(=O)[C@H](Cc2ccc(O)cc2)NC(=O)[C@H](CCCNC(=N)N)NC(=O)[C@H](CCCNC(=N)N)NC(=O)[C@H](CCCNC(=N)N)NC(=O)[C@H](C)NC(=O)[C@H](CC(=O)O)NC(=O)[C@H](Cc2ccc(O)cc2)NC(=O)[C@@H]2CCCN2C(=O)[C@H](CO)NC(=O)[C@H](CCCNC(=N)N)NC(=O)[C@@H]2CSSC[C@H](NC(=O)[C@H](N)[C@H](C)O)C(=O)N[C@@H](CCCNC(=N)N)C(=O)N[C@@H](CO)C(=O)N[C@@H](CO)C(=O)NCC(=O)N[C@@H](CCCNC(=N)N)C(=O)N[C@@H](Cc3ccc(O)cc3)C(=O)N2)CSSC[C@@H](C(=O)N[C@H](C(=O)O)C(C)C)NC(=O)[C@H](C)NC(=O)[C@H](CC(=O)O)NC(=O)[C@H]([C@@H](C)O)NC1=O has an IC50 of 2740 nM.

Work on CC[C@H](C)[C@@H]1NC(=O)[C@H](CCCNC(=N)N)NC(=O)[C@H](CCCNC(=N)N)NC(=O)[C@@H]2CSSC[C@H](NC(=O)[C@H](Cc3ccc(O)cc3)NC(=O)[C@H](CCCNC(=N)N)NC(=O)[C@H](C)NC(=O)[C@H](CO)NC(=O)[C@H](CO)NC(=O)[C@H](CCCNC(=N)N)NC(=O)[C@@H](NC(=O)[C@@H](N)[C@@H](C)O)CSSC[C@@H](C(=O)N[C@H](C(=O)O)C(C)C)NC(=O)[C@H](C)NC(=O)[C@H](CC(=O)O)NC(=O)[C@H]([C@@H](C)O)NC1=O)C(=O)N[C@@H](CCCNC(=N)N)C(=O)N[C@@H](CO)C(=O)N1CCC[C@H]1C(=O)N[C@@H](Cc1ccc(O)cc1)C(=O)N[C@@H](CC(=O)O)C(=O)N[C@@H](CCCNC(=N)N)C(=O)N[C@@H](CCCNC(=N)N)C(=O)N[C@@H](CCCNC(=N)N)C(=O)N[C@@H](CCCNC(=N)N)C(=O)N[C@@H](Cc1ccc(O)cc1)C(=O)N2 yielded an IC50 of 770 nM.

For CC[C@H](C)[C@@H]1NC(=O)[C@H](CCCNC(=N)N)NC(=O)[C@H](CCCNC(=N)N)NC(=O)[C@@H]2CSSC[C@H](NC(=O)[C@H](Cc3ccc(O)cc3)NC(=O)[C@H](CCCNC(=N)N)NC(=O)CNC(=O)[C@H](CO)NC(=O)[C@H](CO)NC(=O)[C@H](CCCNC(=N)N)NC(=O)[C@@H](NC(=O)[C@@H](N)[C@@H](C)O)CSSC[C@@H](C(=O)N[C@H](C(=O)O)C(C)C)NC(=O)[C@H](C)NC(=O)[C@H](CC(=O)O)NC(=O)[C@H]([C@@H](C)O)NC1=O)C(=O)N[C@@H](CCCNC(=N)N)C(=O)N[C@@H](CO)C(=O)N1CCC[C@H]1C(=O)N[C@@H](Cc1ccc(O)cc1)C(=O)N[C@@H](C)C(=O)N[C@@H](CCCNC(=N)N)C(=O)N[C@@H](CCCNC(=N)N)C(=O)N[C@@H](CCCNC(=N)N)C(=O)N[C@@H](CCCNC(=N)N)C(=O)N[C@@H](Cc1ccc(O)cc1)C(=O)N2, the IC50 was 880 nM.
